# PSTVd loop 6 mutant pool in Nicotiana benthamiana

The measurements come from Wu et al. 2024 (doi:10.1371/journal.ppat.1012142).

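A pool of all variants was put on leaves of three Nicotiana benthamiana plants. Progeny were sequenced from the inoculated region (day 5), the margin of the inoculated leaf (day 10) and systemic leaves (day 12).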

PSTVd intermediate strain, loop 6: wild type UGACCGCGAG, pool pattern UNNNCGNNNG; upper and lower strand joined, each 5' to 3', the first 5 letters being the upper strand, closing pairs included.

Numbers give reads per thousand; 0 = not seen among the reads, higher = more abundant. Each site shows the three plants. "Pool" is the share in the plasmid pool used as inoculum, on the same scale. The inoculated region was read from the minus strand, the other sites from the plus strand. IR is the inoculated region, LM the leaf margin, Sys the systemic leaves. Samples held 36,220 to 57,551 reads, so the smallest values rest on one or two reads.

- UGUCCGUAAG (pool 0.144): IR 0.608 / 0.808 / 0.498; LM 0.193 / 0.151 / 0.139; Sys 0 / 0 / 0
- UACCCGCGUG (pool 0.118): IR 0.191 / 0.162 / 0.0553; LM 0.0828 / 0.0252 / 0.0928; Sys 0 / 0 / 0
- UUGGCGCACG (pool 0.288): IR 0.122 / 0.0719 / 0.0922; LM 0.0276 / 0 / 0; Sys 0 / 0 / 0
- UCCACGCGAU (pool 0.0131): IR 0.0174 / 0.0719 / 0.111; LM 0 / 0 / 0; Sys 0 / 0 / 0
- UCUUCGUCGG (pool 0.445): IR 0.0869 / 0.0719 / 0.0738; LM 0 / 0.126 / 0; Sys 0 / 0 / 0
- UAAACGGUCG (pool 0.261): IR 0.730 / 0.736 / 0.535; LM 0.0828 / 0.0252 / 0.0464; Sys 0 / 0.0202 / 0.0205
- UAUCCGUAGG (pool 0.157): IR 0.156 / 0.144 / 0.0184; LM 0.0276 / 0 / 0; Sys 0 / 0 / 0
- UGCACGUGAG (pool 0.183): IR 0.0869 / 0.162 / 0.240; LM 0.0276 / 0 / 0; Sys 0 / 0 / 0
- UCAUCGUACG (pool 0.261): IR 0.104 / 0.0719 / 0.0369; LM 0 / 0 / 0; Sys 0 / 0 / 0
- UCUCCGUGAG (pool 0.209): IR 0.209 / 0.108 / 0.111; LM 0 / 0 / 0.0464; Sys 0 / 0 / 0
- UCCACGACGG (pool 0.157): IR 0.0695 / 0.0539 / 0.111; LM 0 / 0 / 0; Sys 0 / 0 / 0
- UUAUCGGCGG (pool 0.366): IR 0.0869 / 0.0719 / 0.0738; LM 0 / 0 / 0.0232; Sys 0 / 0 / 0
- UUAGCGGAGG (pool 0.196): IR 0.0869 / 0.0898 / 0.0738; LM 0 / 0 / 0; Sys 0 / 0 / 0
- UGAUCGUAAG (pool 0.209): IR 0.0869 / 0.0359 / 0.0738; LM 0 / 0 / 0; Sys 0 / 0 / 0
- UCAACGCCGG (pool 0.0784): IR 0.0869 / 0.0539 / 0.0553; LM 0 / 0 / 0; Sys 0 / 0 / 0
- UCUUCGGCGG (pool 0.275): IR 0.0869 / 0.144 / 0.111; LM 0.0276 / 0 / 0; Sys 0 / 0 / 0
- UCAACGUUAG (pool 0.275): IR 0.191 / 0.126 / 0.0184; LM 0 / 0 / 0.0232; Sys 0 / 0 / 0
- UUGCCGUGCG (pool 0.157): IR 0.0521 / 0.0719 / 0.0553; LM 0 / 0 / 0.0232; Sys 0 / 0 / 0
- UGGUCGACUG (pool 0.288): IR 0.0695 / 0.0719 / 0.111; LM 0.0276 / 0 / 0; Sys 0 / 0 / 0
- UCAUCGCAAG (pool 0.0915): IR 0.0348 / 0.180 / 0.258; LM 0 / 0 / 0; Sys 0 / 0 / 0
- UGGGCGGCAG (pool 0.144): IR 0.0521 / 0.0898 / 0.0369; LM 0 / 0 / 0; Sys 0 / 0 / 0
- UAUUCGUCGG (pool 0.301): IR 0.122 / 0.0719 / 0.0369; LM 0.0276 / 0 / 0; Sys 0 / 0 / 0
- UCUACGACCG (pool 0.261): IR 0.0869 / 0.0359 / 0.0369; LM 0.0276 / 0 / 0.0232; Sys 0 / 0 / 0
- UAAACGCGGG (pool 0.131): IR 0.0695 / 0.108 / 0.148; LM 0.0828 / 0 / 0.0232; Sys 0 / 0 / 0.0205
- UCCUCGCUGG (pool 0.144): IR 0.104 / 0.0719 / 0.0553; LM 0 / 0 / 0; Sys 0 / 0 / 0
- UCCCCGGUCG (pool 0.353): IR 0.122 / 0.126 / 0.129; LM 0 / 0 / 0.0464; Sys 0 / 0 / 0
- UAAACGUAUG (pool 0.196): IR 0.139 / 0.0898 / 0.0553; LM 0.387 / 0 / 0.0464; Sys 0 / 0 / 0
- UAUACGCGAG (pool 0.353): IR 0.295 / 0.234 / 0.350; LM 0.221 / 0.328 / 0.696; Sys 0.0359 / 0.0808 / 0.0615
- UCGCCGGAAG (pool 0.157): IR 0.0695 / 0.144 / 0.0369; LM 0 / 0 / 0.0232; Sys 0 / 0 / 0

For reference, wild type rose from 20.7 per thousand in the pool to 195, 198, 203 (inoculated region), 629, 591, 734 (leaf margin) and 942, 870, 868 (systemic leaves). Sequences that differ at fixed positions probably stem from PCR or sequencing errors, and defective variants can be carried along by functional ones.